Pooled drug test results. Numbers come from NIAID ChemDB, via PubChem.

Shared fields: whole-cell or culture tests; organism: HIV-1; cell line: MT-4; read-out: EC50

An empty or dashed field is not shown.

compound | strain | changes | method | value
O=C(Nc1cc(-c2ccc3c(c2)CCCC3)[nH]n1)c1ccc(-c2cncnc2)s1 | NL4-3 | WT | luminescence | 1.93 µM
Cc1ccnc2c1NC(=O)c1cccnc1N2C1CC1 | IIIB-R (RT-Y181C) | RT-Y181C | cytopathic effect / MTT | >224 µM
CO[C@H]1[C@H]2[C@@H]([C@@H](OC(C)=O)[C@@H](C)C(=O)[C@@]34C[C@H](C)[C@H](O)[C@]3(/C=C(\C)[C@H]1O)O4)C2(C)C | NL4-3 | - | luciferase / luminescence | >44 µM
CC(=O)N[C@H](C(=O)N[C@@H](Cc1ccccc1)C[C@H](O)[C@H](Cc1ccccc1)NC(=O)[C@@H]1CN(c2ccc(F)c(F)c2)C(=O)O1)C(C)C | - | - | MTT | 0.36 µM
Nc1ncnc2c1ncn2[C@@H]1CO[C@H](CO)C1 | - | - | - | 10–20 µM
CCOC(=O)[C@H](C)NP(=O)(OC[C@@H]1O[C@H](n2cc(C)c(=O)[nH]c2=O)C[C@H]1N=[N+]=[N-])OC[C@H]1O[C@@H](n2cc(C)c(=O)[nH]c2=O)C[C@@H]1N=[N+]=[N-] | IIIB | - | cytopathic effect / MTT | 0.35 µM
CC(C)(C)NC(=O)[C@@H]1C[C@@H]2CCCC[C@@H]2CN1C[C@@H](O)[C@H](Cc1ccccc1)NC(=O)[C@@H](NC(=O)c1cc(=O)c2ccccc2o1)[C@H]1CCOC1 | IIIB | - | p24 | <0.025 µM
CC(C)Nc1cccnc1N1CCN(C(=O)c2cc3cc(NS(C)(=O)=O)ccc3[nH]2)CC1 | IIIB | - | MTT | 0.14 µM
CC(C)[C@H](NC(=O)c1ccc2ccccc2n1)C(=O)N[C@@H](Cc1ccccc1)[C@H](O)CN1C[C@H]2CCCC[C@H]2C[C@H]1C(=O)NC(C)(C)C | IIIB | - | p24 | <0.1 µM
Cc1cc(C)nc(NS(=O)(=O)c2ccc(N=C3C(=O)Nc4ccc(Br)cc43)cc2)n1 | IIIB | - | cytopathic effect / MTT | 15.3 µg/mL
CC(C)(C)NC(=O)[C@@H]1C[C@@H]2CCCC[C@@H]2CN1C[C@@H](O)[C@H](Cc1ccccc1)NC(=O)[C@@H](NC(=O)c1ccc2ccccc2n1)[C@@H]1CCOC1 | IIIB | - | p24 | <0.1 µM
O=C1C=C2[C@H]3C=CC[C@]2(O1)[C@H]1CCCCN31 | NL4-3 | - | MTT | 45 µM
Cc1cn([C@H]2C[C@H](N=[N+]=[N-])[C@@H](CO)O2)c(=O)[nH]c1=O | IIIB | - | cytopathic effect / MTT | 0.017 µM
Cc1cc(C)cc(S(=O)(=O)c2c(C(=O)NCC(=O)NC(C)c3ccncc3)[nH]c3ccc(Cl)cc23)c1 | NL4-3 | Y181C | cytopathic effect / MTT / absorbance | 0.0112 µM
CC(C)(C)NC(=O)[C@@H]1C[C@@H]2CCCC[C@@H]2CN1C[C@@H](O)[C@H](Cc1ccccc1)NC(=O)[C@H](CC(N)=O)NC(=O)c1ccc2ccccc2n1 | NL4-3 | - | p24 | 0.006 µM
Cc1cc(NC2=NS(=O)(=O)NC(Cc3ccccc3)=C2)ccc1Cl | IIIB | - | MTT | >179 µM
COC(=O)N[C@H](C(=O)N[C@@H](Cc1ccccc1)C[C@H](O)[C@H](Cc1ccccc1)NC(=O)[C@@H]1CN(c2ccccc2)C(=O)O1)C(C)(C)C | - | - | MTT | 1.03 µM
O=C(/C=C/c1ncc(-c2cccnc2)cn1)Nc1cc(-c2ccc3c(c2)CCCC3)[nH]n1 | NL4-3 | K103N | luminescence | 0.26 µM
O=C1CN=C(c2ccc[nH]2)c2cc(Cl)ccc2N1 | IIIB/LAI | - | antigen | >9 µM
CC(C)=CCN1Cc2cc(Cl)cc3[nH]c(=S)n(c23)C[C@@H]1C | IIIB | - | - | 0.042 µM
CCc1cc(CCc2nc3ccccc3o2)c(=O)[nH]c1C | IIIB | - | cytopathic effect / MTT | 0.022 µM
CCc1cc(NCc2nc3c(Cl)ccc(Cl)c3o2)c(=O)[nH]c1C | NL4-3 | RT-V179D | p24 | 0.4 µM
O=S1(=O)NC(Cc2ccccc2)=CC(=NCCc2ccccc2)N1 | IIIB | - | MTT | >192 µM
Cc1cc(C)nc(NS(=O)(=O)c2ccc(N=C3C(=O)Nc4ccc(Cl)cc43)cc2)n1 | IIIB | - | cytopathic effect / MTT | 10.3 µg/mL
O=S1(=O)N=C(Nc2ccc(F)c(F)c2F)C=C(Cc2ccccc2)N1 | IIIB | - | MTT | >198 µM
Cc1ccnc2c1NC(=O)c1cccnc1N2C1CC1 | - | RT-L74V K101E | - | <1.5 µM
Nc1ccn([C@H]2CC[C@@H](CO)O2)c(=O)n1 | IIIB | - | cytopathic effect / MTT | 0.18–0.26 µM
O=S1(=O)N=C(Nc2ccccc2)C=C(Cc2ccccc2)N1 | IIIB | - | MTT | >292 µM
CC(=O)N1C(=O)C(=Nc2ccc(S(=O)(=O)Nc3nc(C)cc(C)n3)cc2)c2ccccc21 | IIIB | - | cytopathic effect / MTT | 8 µg/mL
CN1CCN(c2ncc(C(=O)N[C@H](C(=O)N[C@@H](Cc3ccccc3)[C@H](O)CN3C[C@H]4CCCC[C@H]4C[C@H]3C(=O)NC(C)(C)C)[C@H]3CCOC3)nc2Cl)CC1 | IIIB | - | p24 | <0.012 µM
C=C1C[C@@]23CC[C@@H]4C(C)(C)[C@H](O)CC[C@@]4(C)[C@@H]2C[C@@H]1[C@@H](O)C3=O | NL4-3 | - | luciferase / luminescence | >44 µM
CC(C)(C)NC(=O)[C@@H]1C[C@@H]2CCCC[C@@H]2CN1C[C@@H](O)[C@H](Cc1ccccc1)NC(=O)[C@H](CC(N)=O)NC(=O)c1ccc2ccccc2n1 | NL4-3 | - | cytopathic effect / MTT | 0.01 µM
CC1(C)OC[C@@]2(C[C@]34CC[C@H]2C[C@H]3[C@]2(C)CC[C@H](O)C(C)(C)[C@H]2CC4)O1 | NL4-3 | - | luciferase / luminescence | 34 µM
O=S1(=O)N=C(Nc2ccc(F)cc2)C=C(Cc2cccc3ccccc23)N1 | IIIB | - | MTT | 32 µM
Cc1cn([C@H]2C[C@H](N=[N+]=[N-])[C@@H](COP(=O)(OCCSC(=O)C(C)(C)C)OCCSC(=O)C(C)(C)C)O2)c(=O)[nH]c1=O | IIIB | - | cytopathic effect / MTT | 0.81 µM
Cc1ccc(NC2=NS(=O)(=O)NC(Cc3ccc4ccccc4c3)=C2)cc1C | IIIB | - | MTT | >147 µM
Cc1cn([C@H]2CO[C@](CO)(CN=[N+]=[N-])C2)c(=O)[nH]c1=O | IIIB | - | - | >100 µM
O=C(Nc1cc(-c2ccc3c(c2)CCCC3)[nH]n1)c1ccc(-c2ccncc2)s1 | NL4-3 | K103N | luminescence | 3.36 µM
O=S1(=O)N=C(Nc2ccccc2Cl)C=C(Cc2cccc3ccccc23)N1 | IIIB | - | MTT | >154 µM

Repeating the final 5 entries:

| compound | strain | changes | method | value |
|---|---|---|---|---|
| Cc1cn([C@H]2C[C@H](N=[N+]=[N-])[C@@H](COP(=O)(OCCSC(=O)C(C)(C)C)OCCSC(=O)C(C)(C)C)O2)c(=O)[nH]c1=O | IIIB | - | cytopathic effect / MTT | 0.81 µM |
| Cc1ccc(NC2=NS(=O)(=O)NC(Cc3ccc4ccccc4c3)=C2)cc1C | IIIB | - | MTT | >147 µM |
| Cc1cn([C@H]2CO[C@](CO)(CN=[N+]=[N-])C2)c(=O)[nH]c1=O | IIIB | - | - | >100 µM |
| O=C(Nc1cc(-c2ccc3c(c2)CCCC3)[nH]n1)c1ccc(-c2ccncc2)s1 | NL4-3 | K103N | luminescence | 3.36 µM |
| O=S1(=O)N=C(Nc2ccccc2Cl)C=C(Cc2cccc3ccccc23)N1 | IIIB | - | MTT | >154 µM |

ECn is the concentration giving n% inhibition of infection, replication or growth. Two numbers with a dash give a range or band. Conditions beyond the fields shown may differ between rows.